Laboratory results reported in patent EP4847047A1, “CONJUGATE, PREPARATION METHOD THEREFOR, AND USE THEREOF” (dated 2026).

How the values were obtained:
[1] = system: A/California/04/2009(H1N1); test: In vitro anti-influenza virus activity (CPE inhibition) in infected MDCK cells
A/Shanghai/02/2013(H7N9) = test: as above
A/Vietnam/2004(H5N1) = test: as above
[2] = system: influenza virus (A/California/07/2009); test: In vivo anti-influenza virus activity in severe influenza DBA/2 mouse model; settings: DBA/2 mice, 1×10^4 PFU; zanamivir 5 mg/kg i.v. once daily, oseltamivir phosphate 20 mg/kg oral twice daily, 5 consecutive days

SMILES | EC50 [1] | EC50 (A/Shanghai/02/2013(H7N9)) | EC50 (A/Vietnam/2004(H5N1)) | survival of mice receiving positive control drugs [2]
CCC(CC)[C@H](NC(C)=O)[C@@H]1[C@H](O)[C@@H](C(=O)O)C[C@H]1N=C(N)N | 122 nM | 88.9 nM | 300 nM | –
CCOC(=O)C1=C[C@@H](OC(CC)CC)[C@H](NC(C)=O)[C@@H](N)C1 | – | – | – | died

The match of structure and compound is tentative.
